System: Leishmania amazonensis promastigote forms
Experiment: Leishmanicidal MTT assay on promastigote forms
Format: cell-based

For COC1CC23C(=CC(=O)N2CCc2cc4c(cc23)OCO4)C2OC12 (centres unmarked), the SI (Selectivity Index = CC50 drug/IC50 drug) (CC50 J774 macrophages / IC50 L. amazonensis promastigotes) was 0.98 and the “L. amazonensis IC50” value (promastigote forms, 48 h treatment, MTT) was 48.17 µg/mL.

Reference: article PMC6271856, “Leishmanicidal Evaluation of Tetrahydroprotoberberine and Spirocyclic Erythrina-Alkaloids” (Molecules, 2014)
